Measured values from several laboratories, pooled; numbers as filed in NIAID ChemDB.

Shared fields: enzyme or target tests

a–b is a range or a potency band. Blank or dashed fields: not listed here. Rows are shuffled and stem from different studies. ICn is the concentration giving n% inhibition. Percent inhibition refers to the dose given; in toxicity tests it is the harm to the cells.

| smiles | tested at | strain or isolate | read-out | target | read by | species | value |
|---|---|---|---|---|---|---|---|
| Cc1cc(S(=O)(=O)Nc2cc(-c3ccc(F)cc3)sc2C(=O)O)c(C)cc1Cl |  |  | IC50 | NS3 ATPase |  | Hepatitis C virus | <5 µM |
| C=CC(=O)NCC(=O)N1C[C@H](Oc2nccc3ccc(Br)cc23)C[C@H]1C(=O)N[C@]1(C(=O)NS(=O)(=O)C2CC2)C[C@H]1C=C |  | 1b WT | IC50 | Nonstructural protein 3/4A | FRET | Hepatitis C virus | 0.004 µM |
| CC[C@H](NC(=O)[C@@H](NC(=O)[C@H](C(C)C)N(C)C(=O)[C@H](CC(=O)O)NC(=O)[C@@H](N)CCC(=O)O)C(C)C)C(=O)N[C@@H](CS)C(=O)O |  |  | IC50 | NS3 protease |  | Hepatitis C virus | 1.3 µM |
| O=C(Nc1cccc(-c2nc(C(=O)O)c(O)c(=O)[nH]2)c1)Nc1ccccc1[N+](=O)[O-] |  |  | IC50 | HCV polymerase |  | Hepatitis C virus | <100 µM |
| Cc1cccc(/C=C2/SC(=S)N(NS(=O)(=O)c3ccccc3)C2=O)n1 |  |  | IC50 | NS5B polymerase |  | Hepatitis C virus | >30 µM |
| O=C(Cc1cc(F)cc(F)c1)Nc1ccsc1-c1nc(C(=O)O)c(O)c(=O)[nH]1 |  |  | IC50 | HCV polymerase |  | Hepatitis C virus | <25 µM |
| O=C(c1ccc(CN(c2ccc(Cl)cc2Cl)[C@@H](Cc2ccccc2)C(=O)O)cc1)c1cccc(Cl)c1 |  |  | IC50 | RNA-dependent RNA polymerase |  | Hepatitis C virus | <5 µM |
| O=C(CSc1ccccc1)Nc1ccsc1-c1nc(C(=O)O)c(O)c(=O)[nH]1 |  |  | IC50 | HCV polymerase |  | Hepatitis C virus | <25 µM |
| CC1=NCCN1c1cc(C(=O)Nc2ccc3[nH]ncc3c2)c(F)cc1F | 0.1 µg/mL |  | inhibition | Reverse transcriptase |  | Hepatitis B virus | 40% |
| Cc1ccc(S(=O)(=O)Nc2cc(-c3ccc(F)cc3)sc2C(=O)O)cc1 |  |  | IC50 | NS3 ATPase |  | Hepatitis C virus | <5 µM |
| O=C(Nc1ccc2cn[nH]c2c1)c1cc(C2CCNCCN2)c(F)cc1F | 0.1 µg/mL |  | inhibition | Reverse transcriptase |  | Hepatitis B virus | 43% |
| CC[C@H](NC(=O)[C@@H](NC(=O)[C@@H](NC(=O)[C@H](CC(=O)O)NC(=O)[C@H](CCC(=O)O)NC(C)=O)C(C)C)C(C)C)C(=O)N[C@@H](CS)C(=O)O |  |  | IC50 | HCV NS3 protease |  | Hepatitis C virus | 2.8 µM |
| O=C(O)[C@H](Cc1ccccc1)N(Cc1cccc(Br)c1)C(=O)c1ccc(Cl)cc1Cl |  |  | IC50 | RNA-dependent RNA polymerase |  | Hepatitis C virus | <5 µM |
| O=C(O)c1sc(-c2ccccc2)cc1N(C(=O)c1ccc(Cl)cc1Cl)C1CCCCC1 |  |  | IC50 | NS3 ATPase |  | Hepatitis C virus | <5 µM |
| CSCC[C@H](NC(=O)[C@H](CCC(=O)O)NC(C)=O)C(=O)N[C@@H](CCC(=O)O)C(=O)N[C@@H](CCC(=O)O)C(=O)N[C@@H](CS)C(=O)O |  |  | IC50 | HCV NS3 protease |  | Hepatitis C virus | 21 µM |
| CC(C(=O)Nc1ccsc1-c1nc(C(=O)O)c(O)c(=O)[nH]1)c1n[nH]c(=O)c2ccccc12 |  |  | IC50 | HCV polymerase |  | Hepatitis C virus | <25 µM |
| COc1ccc(/C=C2/SC(=S)N(N)C2=O)cc1 |  |  | IC50 | NS5B polymerase |  | Hepatitis C virus | >30 µM |
| CCOC(=O)CC(c1cccs1)C(Cc1ccc(C)cc1)N(Cc1cccc(-c2cc3ccccc3o2)c1)S(=O)(=O)c1c(C)cc(OC)c(C)c1C |  |  | IC50 | RNA-dependent RNA polymerase |  | Hepatitis C virus | 5–20 µM |
| O=C1NC(=O)/C(=C\c2ccc(Cl)cc2)S1 |  |  | IC50 | NS5B polymerase |  | Hepatitis C virus | >30 µM |
| NCc1ccccc1COC(=O)Nc1ccsc1-c1nc(C(=O)O)c(O)c(=O)[nH]1 |  |  | IC50 | HCV polymerase |  | Hepatitis C virus | <25 µM |
| Cc1ccccc1S(=O)(=O)Nc1cc(-c2ccc(C(F)(F)F)cc2)sc1C(=O)O |  |  | IC50 | NS3 ATPase |  | Hepatitis C virus | <5 µM |
| O=C(O)[C@H](Cc1ccccc1)N(Cc1cccc(Br)c1)C(=O)c1ccc(Cl)c(Cl)c1 |  |  | IC50 | RNA-dependent RNA polymerase |  | Hepatitis C virus | >20 µM |
| CSCC[C@H](N)C(=O)N[C@@H](CCC(=O)O)C(=O)N[C@@H](CCC(=O)O)C(=O)N[C@@H](CS)C(=O)O |  |  | IC50 | NS3 protease |  | Hepatitis C virus | 150 µM |
| O=C1/C(=C\c2ccc(Cl)c(Cl)c2)SC(=S)N1NS(=O)(=O)c1cccc([N+](=O)[O-])c1 |  |  | IC50 | NS5B polymerase |  | Hepatitis C virus | ≤30 µM |
| CC(=O)N[C@@H](CC(=O)O)C(=O)N[C@@H](C(=O)N[C@@H](CC(C)C)C(=O)N[C@@H](CCC(=O)O)C(=O)N[C@@H](CC1CCCCC1)C(=O)N[C@@H](CS)C(=O)O)C(c1ccccc1)c1ccccc1 |  |  | IC50 | HCV NS3 protease |  | Hepatitis C virus | 0.276 µM |
| CSCC[C@H](NC(=O)[C@H](CCC(=O)O)NC(=O)[C@@H](N)CC(=O)O)C(=O)N[C@@H](CCC(=O)O)C(=O)N[C@@H](CCC(=O)O)C(=O)NC1(C(=O)O)CCCC1 |  |  | IC50 | NS3 protease |  | Hepatitis C virus | 9 µM |
| COc1ccc(C(Cc2ccccc2)NC(=O)Nc2cccc(-c3nc(C(=O)O)c(O)c(=O)[nH]3)c2)cc1OC |  |  | IC50 | HCV polymerase |  | Hepatitis C virus | <100 µM |
| O=C(Nc1ccc2cn[nH]c2c1)c1cc(NCc2ccccn2)c(F)cc1F | 0.1 µg/mL |  | inhibition | Reverse transcriptase |  | Hepatitis B virus | 39% |
| O=C(O)[C@H](Cc1ccccc1)N(Cc1cccc(Br)c1)C(=O)c1ccc(Cl)cc1I |  |  | IC50 | RNA-dependent RNA polymerase |  | Hepatitis C virus | <5 µM |
| CSCC[C@H](NC(=O)[C@H](CCC(=O)O)NC(=O)[C@@H](N)CC(=O)O)C(=O)N[C@@H](CCC(=O)O)C(=O)N[C@@H](CCC(=O)O)C(=O)NCC(=O)O |  |  | IC50 | NS3 protease |  | Hepatitis C virus | 62 µM |
| O=C(Nc1ccc2cn[nH]c2c1)c1cc(N2CCNCC2)c(F)cc1F | 1 µg/mL |  | inhibition | Reverse transcriptase |  | Hepatitis B virus | 56% |
| Cc1cc(S(=O)(=O)Nc2cc(-c3ccc(CC(C)C)cc3)sc2C(=O)O)c(C)cc1Cl |  |  | IC50 | NS3 ATPase |  | Hepatitis C virus | 5–20 µM |
| COc1ccccc1CNC(=O)Nc1cscc1-c1nc(C(=O)O)c(O)c(=O)[nH]1 |  |  | IC50 | HCV polymerase |  | Hepatitis C virus | <25 µM |
| CSCC[C@H](NC(=O)[C@H](CCC(=O)O)NC(=O)[C@@H](N)CC(=O)O)C(=O)N[C@@H](CCC(=O)O)C(=O)N[C@@H](CCC(=O)O)C(=O)N[C@@H](CS)C(=O)NS(=O)(=O)C(C)=O |  |  | IC50 | NS3 protease |  | Hepatitis C virus | 4 µM |
| O=C(Nc1ccc2[nH]ncc2c1)c1cc(N2CCC(O)CC2)c(F)cc1F | 0.1 µg/mL |  | inhibition | Nonstructural protein 5B |  | Hepatitis C virus | 30% |
| Cc1ccc(N(C)C(=O)c2cc(-c3ccccc3)sc2C(=O)O)cc1 |  |  | IC50 | NS3 ATPase |  | Hepatitis C virus | 5–20 µM |
| O=C1/C(=C\c2ccc([N+](=O)[O-])cc2)SC(=S)N1NS(=O)(=O)c1ccccc1 |  |  | IC50 | NS5B polymerase |  | Hepatitis C virus | ≤30 µM |
| O=C(Nc1ccc2[nH]ncc2c1)c1cc(N2CCN(CCO)CC2)c(F)cc1F | 0.1 µg/mL |  | inhibition | Nonstructural protein 5B |  | Hepatitis C virus | 8% |
| COc1ccc(S(=O)(=O)NN2C(=O)/C(=C\c3ccc(Cl)c(Cl)c3)SC2=S)cc1 |  |  | IC50 | NS5B polymerase |  | Hepatitis C virus | ≤30 µM |
| C=C/C=C\C=C/CC(NC(=O)[C@H](CCC(=O)O)NC(=O)[C@@H](N)CC(=O)O)C(=O)N[C@@H](CCC(=O)O)C(=O)N[C@@H](CC1CCCCC1)C(=O)N[C@@H](CS)C(=O)O |  |  | IC50 | NS3 protease |  | Hepatitis C virus | 0.12 µM |
| O=C(O)c1nc(-c2cc3ccccc3cn2)[nH]c(=O)c1O |  |  | IC50 | HCV polymerase |  | Hepatitis C virus | <100 µM |
| Cc1ccc(/C=C2/SC(=S)N(NS(=O)(=O)c3ccccc3)C2=O)cc1C |  |  | IC50 | NS5B polymerase |  | Hepatitis C virus | ≤30 µM |
| CC(=O)N[C@@H](CC(=O)O)C(=O)N[C@@H](Cc1ccc([N+](=O)[O-])cc1)C(=O)N[C@@H](CC(C)C)C(=O)N[C@@H](CCC(=O)O)C(=O)N[C@@H](CC1CCCCC1)C(=O)N[C@@H](CS)C(=O)O |  |  | IC50 | HCV NS3 protease |  | Hepatitis C virus | 0.24 µM |
| CCN(C(=O)c1ccc(C)cc1)c1cc(-c2ccccc2)sc1C(=O)O |  |  | IC50 | NS3 ATPase |  | Hepatitis C virus | <5 µM |
| N[C@@H](CC(=O)O)C(=O)N[C@@H](CCC(=O)O)C(=O)N[C@@H](CC1CCCCC1)C(=O)N[C@@H](CCC(=O)O)C(=O)N[C@@H](CC1CCCCC1)C(=O)N[C@@H](CS)C(=O)O |  |  | IC50 | NS3 protease |  | Hepatitis C virus | 0.14 µM |
| C=CCN(C(=O)CCC(C)C)c1cc(-c2ccccc2)sc1C(=O)O |  |  | IC50 | NS3 ATPase |  | Hepatitis C virus | 5–20 µM |
| CC(=O)N[C@@H](CC(=O)O)C(=O)N[C@@H](C(=O)N[C@@H](CC(C)C)C(=O)N[C@@H](CCC(=O)O)C(=O)N[C@@H](CC1CCCCC1)C(=O)N[C@@H](CS)C(=O)O)C(C)C |  |  | IC50 | HCV NS3 protease |  | Hepatitis C virus | 0.47 µM |
| O=C(Nc1cc(-c2ccccc2)sc1C(=O)O)c1cccs1 |  |  | IC50 | NS3 ATPase |  | Hepatitis C virus | 5–20 µM |
| CC[C@H](C)[C@H](NC(=O)[C@H](CCC(=O)O)NC(=O)[C@@H](N)CC(=O)O)C(=O)N[C@@H](CCC(=O)O)C(=O)N[C@@H](CC1CCCCC1)C(=O)N[C@@H](CS)C(=O)O |  |  | IC50 | NS3 protease |  | Hepatitis C virus | 0.12 µM |

The last 6 rows once more:

smiles,tested at,strain or isolate,read-out,target,read by,species,value
CCN(C(=O)c1ccc(C)cc1)c1cc(-c2ccccc2)sc1C(=O)O,,,IC50,NS3 ATPase,,Hepatitis C virus,<5 µM
N[C@@H](CC(=O)O)C(=O)N[C@@H](CCC(=O)O)C(=O)N[C@@H](CC1CCCCC1)C(=O)N[C@@H](CCC(=O)O)C(=O)N[C@@H](CC1CCCCC1)C(=O)N[C@@H](CS)C(=O)O,,,IC50,NS3 protease,,Hepatitis C virus,0.14 µM
C=CCN(C(=O)CCC(C)C)c1cc(-c2ccccc2)sc1C(=O)O,,,IC50,NS3 ATPase,,Hepatitis C virus,5–20 µM
CC(=O)N[C@@H](CC(=O)O)C(=O)N[C@@H](C(=O)N[C@@H](CC(C)C)C(=O)N[C@@H](CCC(=O)O)C(=O)N[C@@H](CC1CCCCC1)C(=O)N[C@@H](CS)C(=O)O)C(C)C,,,IC50,HCV NS3 protease,,Hepatitis C virus,0.47 µM
O=C(Nc1cc(-c2ccccc2)sc1C(=O)O)c1cccs1,,,IC50,NS3 ATPase,,Hepatitis C virus,5–20 µM
CC[C@H](C)[C@H](NC(=O)[C@H](CCC(=O)O)NC(=O)[C@@H](N)CC(=O)O)C(=O)N[C@@H](CCC(=O)O)C(=O)N[C@@H](CC1CCCCC1)C(=O)N[C@@H](CS)C(=O)O,,,IC50,NS3 protease,,Hepatitis C virus,0.12 µM